Measured values from several laboratories, pooled; numbers as filed in NIAID ChemDB.

All rows: whole-cell or culture tests; agent: Hepatitis C virus; read-out: EC50

ECn is the concentration giving n% inhibition of infection, replication or growth.

SMILES | cells | strain or isolate | mutations | read by | result
CCCCCOc1ccc(N(C(N)=O)c2nc(-c3ccc4c(c3)NC(=O)CO4)cs2)cc1F |  |  |  |  | >10 µM
CNC(=O)c1c(-c2ccc(F)cc2)oc2cc(N(CCO)S(C)(=O)=O)c(C3CC3)cc12 | Huh7.5 | H77 genotype 1a |  | luciferase | 0.0261 µM
COC(=O)N[C@H](C(=O)N1CCCC1c1ncc(-c2ccc(-c3ccc(-c4cnc([C@@H]5CC(C)CN5C(=O)[C@@H](NC(=O)CO)C(C)C)[nH]4)cc3)cc2)[nH]1)C(C)C | Lunet | 1a |  | luciferase | 0.0000107 µM
CCCCCCCCOc1ccc(N(C(=O)COCCOCCOC)c2nc(-c3cccnc3)c(F)s2)cc1C(F)(F)F |  |  |  |  | <1 µM
CC(CCOc1ccc(-c2ccccc2)cc1)CCOc1cccc(NC(N)=S)c1 | Ava5-EG(delta4AB)SEAP |  |  | reporter gene / fluorescence | 0.001–1 µM
CCCCCCCCOc1ccc(N(C(=O)CCC(=O)O)c2nc(-c3cccnc3)cs2)cc1C(F)(F)F.[Na+] |  |  |  |  | <1 µM
COCCOc1nc(N)nc2ccc(-c3ccc(C(=O)NC4CC4)cc3)nc12 | Huh7 |  |  | replicon | <0.3 µM
Cc1ccc(C(=O)N(c2cc(-c3ccc(-c4cc5ncccn5n4)cc3)sc2C(=O)O)C(C)C)c(C)c1 |  | 1b |  | luciferase / replicon | 0.05–0.1 µM
CC1CCC(C(=O)N(CC2CCOCC2)c2cc(-c3ccc(-c4cc5ncccc5o4)cc3)sc2C(=O)O)CC1 |  | 1a |  | replicon / ELISA | 0.001–0.0049 µM
Nc1nc(N2CCOCC2)c2nc(-c3ccc(C(=O)NC4CC4)cc3)ccc2n1 | Huh7 |  |  | replicon | <0.3 µM
CCOCCN(C(=O)C1CCC(C)CC1)c1cc(-c2ccc(-c3cc4ncccc4o3)cc2)sc1C(=O)O |  | 1a |  | replicon / ELISA | 0.005–0.0099 µM
COC(=O)N[C@H](C(=O)N1CCC[C@@H]1c1ncc(-c2ccc(-c3ccc(-c4cnc([C@@]5(C)CCCN5C(=O)[C@@H](Nc5ncccn5)C(C)C)[nH]4)cc3)cc2)[nH]1)C(C)C |  | 1b |  |  | 0.00001–0.000999 µM
COCC(C)N(C(=O)c1ccc(Cl)cc1Cl)c1cc(-c2ccccc2)sc1C(=O)O |  | 1b |  | replicon / ELISA | 1–5 µM
COC(=O)N[C@H](C(=O)N1CCC[C@@H]1c1ncc(-c2cnc(-c3ccc(-c4nc([C@H]5CCCN5C(=O)[C@@H](NC(=O)OC)C(C)C)[nH]c4C(F)(F)F)cc3)nc2)[nH]1)C(C)C |  | 1b |  |  | 0.00001–0.000999 µM
CC(=O)c1ccc(-c2cc(N(C(=O)c3ccc(Cl)cc3Cl)C(C)C)c(C(=O)O)s2)s1 |  | 1a |  | luciferase / replicon | >5 µM
COC(=O)N[C@@H](C)C(=O)N(C)[C@@H](C)c1ncc(-c2ccc(-c3ccc(-c4nc([C@H]5CCCN5C(=O)[C@H](C)NC(=O)OC)[nH]c4C(F)(F)F)cc3)cc2)[nH]1 |  | 1b |  |  | 0.00001–0.000999 µM
CNC(=O)c1c(-c2ccc(F)cc2)oc2cc(NC(C)(C)C)c(OC(C)C)cc12 | Huh7 |  |  | replicon | <10 µM
CCCCCOc1ccc(N(C(=O)C(=O)OC)c2nc(-c3cccnc3)cs2)cc1C(F)(F)F |  |  |  |  | <1 µM
CNC(=O)c1c(-c2ccc(F)cc2)oc2cc(-c3c(C)nn(C)c3C)c(OC(C)C)cc12 | Huh7 |  |  | replicon | <10 µM
CCCCCCCCc1ccc(N(C(=O)C(=O)OC)c2nc(-c3cccnc3)cs2)cc1 |  |  |  |  | <1 µM
CC1CCC(C(=O)N(CC2CCOCC2)c2cc(-c3ccc(-c4nc5ncccc5o4)cc3)sc2C(=O)O)CC1 |  | 1b |  | replicon / ELISA | 0.01–0.049 µM
NS(=O)(=O)c1ccc(CNc2nc(NCC(F)(F)F)c3nc(-c4ccc(NC(=O)[C@H]5CCNC5)cc4)ccc3n2)cc1 |  |  |  | replicon | <0.1 µM
COc1c(-c2ccc3cc(NS(C)(=O)=O)ccc3c2)cc(-n2ccc(=O)[nH]c2=O)cc1C(C)(C)C | Huh7 | genotype 1b Con1 | A553V | luciferase | 0.071 µM
CC1(C)CC(=O)C2=C(C1)Nc1c(O)cccc1N(C(=O)NCC(=O)NCCCO)C2c1ccc(OCc2ccccc2)cc1Cl |  | 1b |  | luciferase / reporter gene / replicon | >32 µM
C[C@H](NC(=O)[C@@H](c1ccccc1)N(C)C)c1ncc(-c2cnc(-c3ccc(-c4cnc([C@H]5CCCN5C(=O)[C@@H](c5ccccc5)N(C)C)[nH]4)cc3)cn2)[nH]1 |  | 1b |  |  | 0.00001–0.000999 µM
CCc1cc2c(C(=O)NC)c(-c3ccc(F)cc3)oc2cc1N(CS(C)(=O)=O)c1cscn1 | Huh7 |  |  | replicon | <1 µM
NC(=S)Nc1cccc(OCCCCOc2ccccc2-c2ccccc2)c1 | Ava5-EG(delta4AB)SEAP |  |  | reporter gene / fluorescence | 0.001–1 µM
CC1(C)CC(=O)C2=C(C1)Nc1c(O)cccc1N(C(=O)C(F)(F)F)C2c1ccc(Cl)cc1Cl |  | 1b |  | luciferase / reporter gene / replicon | 3.88 µM
CCCCCNC(=S)Nc1cccc(OCCCCCc2ccccc2)c1 | Ava5-EG(delta4AB)SEAP |  |  | reporter gene / fluorescence | 0.001–1 µM
CC1(C)CC(=O)C2=C(C1)Nc1c(O)cccc1NC2c1ccc(S(C)(=O)=O)cc1 |  | 1b |  | luciferase / reporter gene / replicon | >100 µM
C=Cc1cc2oc(-c3ccc(F)cc3)c(C(=O)NC)c2cc1OC(C)C | Huh7 |  |  | replicon | <10 µM
NC(=S)Nc1cccc(OCCCCCOc2ccc(C(=O)Oc3ccccc3)cc2)c1 | Ava5-EG(delta4AB)SEAP |  |  | reporter gene / fluorescence | 0.001–1 µM
NS(=O)(=O)c1ccc(CNc2nc(NCC(F)(F)F)c3nc(-c4cnc(N5CCCC5)cn4)ccc3n2)cc1 |  |  |  | replicon | <0.1 µM
CNC(=O)c1c(-c2ccc(F)cc2)oc2cc(NS(C)(=O)=O)c(OC(C)C)cc12 | Huh7 |  |  | replicon | <1 µM
CCCCCOc1ccc(N(C(=O)C2CC2)c2nc(-c3cccnc3)cs2)cc1C(F)(F)F |  |  |  |  | <1 µM
CNC(=O)c1c(-c2ccc(F)cc2)oc2cc(-c3cncs3)c(OC(C)C)cc12 | Huh7 |  |  | replicon | <1 µM
CCCCCCCCNC(=S)Nc1ccc2c(c1)Cc1cc(Br)ccc1-2 | Ava5-EG(delta4AB)SEAP |  |  | reporter gene / fluorescence | 0.001–1 µM
CN(CCS(C)(=O)=O)c1nc(NCc2ccc(F)cc2)nc2ccc(-c3cccc(N(CCO)S(C)(=O)=O)c3)nc12 |  |  |  | replicon | <0.1 µM
CNC(=O)c1c(-c2ccc(F)cc2)oc2cc(C(C)=O)c(O)cc12 | Huh7 |  |  | replicon | <10 µM
CC(=O)N1c2cccc(O)c2NC2=C(C(=O)CC(C)(C)C2)C1c1ccc(Oc2ccccc2Cl)cc1Cl |  | 1b |  | luciferase / reporter gene / replicon | 9.43 µM
CCCc1nc(NCc2ccc(F)cc2)nc2ccc(-c3ccc(NC(=O)C(C)(C)N)cc3)nc12 |  |  |  | replicon | <0.1 µM
COCCN(C(=O)C1CCC(C)CC1)c1cc(-c2ccc(-c3cc4ncccn4n3)cc2)sc1C(=O)O |  | 1b |  | replicon / ELISA | 0.001–0.0049 µM
CC(C)N(C(=O)c1ccc(Cl)cc1Cl)c1cc(-c2ccc(-c3cc4ncccc4o3)cc2)sc1C(=O)O |  | 1a |  | replicon / ELISA | 0.05–0.1 µM
CCOc1nc(NCc2ccc(S(N)(=O)=O)cc2)nc2ccc(-c3ccc(C(=O)NC4(C#N)CC4)cc3)nc12 |  |  |  | replicon | <0.1 µM
CC1(C)CC(=O)C2=C(C1)Nc1c(O)cccc1N(C(=O)CCC#N)C2c1ccc(OCc2ccccc2)cc1F |  | 1b |  | luciferase / reporter gene / replicon | 0.77 µM
CC1CCC(C(=O)N(c2cc(-c3ccc(-c4cn5ccccc5n4)cc3)sc2C(=O)O)C2CCOCC2)CC1 |  | 1a |  | replicon / ELISA | 0.01–0.049 µM
CC(C)N(C(=O)c1ccc(Cl)cc1Cl)c1cc(-c2ccccc2)sc1C(=O)O |  | 1b |  | luciferase / replicon | >5 µM
CC1CCC(C(=O)N(c2cc(-c3ccc(-c4cc5nccc(N)n5n4)cc3)sc2C(=O)O)C2CCOCC2)CC1 |  | 1b |  | replicon / ELISA | 0.001–0.0049 µM
NC(=S)Nc1ccc2c(c1)Cc1cc(NC(=O)c3ccno3)ccc1-2 | Ava5-EG(delta4AB)SEAP |  |  | reporter gene / fluorescence | 0.001–1 µM
Fc1ccc(-c2ccc3nc(NCc4ncco4)nc(NCC(F)(F)F)c3n2)cc1 |  |  |  | replicon | <0.1 µM
C/C=N/N(c1ccc(OCCCCCCCC)c(C(F)(F)F)c1)c1nc(-c2cccnc2)cs1 |  |  |  |  | <1 µM
CC(=O)N1c2cccc(O)c2NC2=C(C(=O)CC(C)(C)C2)C1c1ccc(C#N)cc1 |  | 1b |  | luciferase / reporter gene / replicon | 57.23 µM
COC(=O)N[C@@H](C(=O)N[C@@H](C)c1ncc(-c2ccc(-c3cnc(-c4cnc([C@H]5CCCN5C(=O)[C@H](NC(=O)OC)c5ccccc5)[nH]4)cn3)cc2)[nH]1)c1ccccc1 |  | 1b |  |  | 0.00001–0.000999 µM
CC(C)N(C(=O)c1ccc(Cl)cc1F)c1cc(-c2ccc(-c3cc4ncccn4n3)cc2)sc1C(=O)O |  | 1a |  | replicon / ELISA | 0.05–0.1 µM
CC1(C)CC(=O)C2=C(C1)Nc1c(O)cccc1NC2c1c(F)cc(OCc2ccccc2)cc1F |  | 1b |  | luciferase / reporter gene / replicon | 3.37 µM
C[C@H](NC(=O)[C@@H](c1ccccc1)N(C)C)c1ncc(-c2ccc(-c3ccc(-c4cnc([C@H]5CCCN5C(=O)[C@@H](c5ccccc5)N(C)C)[nH]4)nn3)cc2)[nH]1 |  | 1b |  |  | 0.001–0.099 µM
CC1CCC(C(=O)N(c2cc(-c3ccc(-c4cc5ncccn5n4)cc3)sc2C(=O)O)C2CCOC2)CC1 |  | 1b |  | replicon / ELISA | 0.005–0.0099 µM
CCCCn1c(=O)c2cc(OC)ccc2c2cc(C(O)(C(F)(F)F)C(F)(F)F)c3c(c21)OCO3 | Huh7.5.1 | 2a |  | PCR | 4.9 µM
CCOCCN(C(=O)C1CCC(C)CC1)c1cc(-c2ccc(-c3cn4ccsc4n3)cc2)sc1C(=O)O |  | 1a |  | replicon / ELISA | 0.01–0.049 µM
O=C(N[C@@H](C(=O)N1CCC[C@H]1c1ncc(-c2ccc(-c3ccc(-c4cnc([C@@H]5CCCN5C(=O)[C@H](NC(=O)C5CC5)c5ccccc5)s4)cc3)cc2)s1)c1ccccc1)C1CC1 | Huh7.5 | genotype 2a | T24A | luciferase / reporter gene | 0.0162 µM

Repeating the final 6 entries:

| SMILES | cells | strain or isolate | mutations | read by | result |
|---|---|---|---|---|---|
| CC1(C)CC(=O)C2=C(C1)Nc1c(O)cccc1NC2c1c(F)cc(OCc2ccccc2)cc1F |  | 1b |  | luciferase / reporter gene / replicon | 3.37 µM |
| C[C@H](NC(=O)[C@@H](c1ccccc1)N(C)C)c1ncc(-c2ccc(-c3ccc(-c4cnc([C@H]5CCCN5C(=O)[C@@H](c5ccccc5)N(C)C)[nH]4)nn3)cc2)[nH]1 |  | 1b |  |  | 0.001–0.099 µM |
| CC1CCC(C(=O)N(c2cc(-c3ccc(-c4cc5ncccn5n4)cc3)sc2C(=O)O)C2CCOC2)CC1 |  | 1b |  | replicon / ELISA | 0.005–0.0099 µM |
| CCCCn1c(=O)c2cc(OC)ccc2c2cc(C(O)(C(F)(F)F)C(F)(F)F)c3c(c21)OCO3 | Huh7.5.1 | 2a |  | PCR | 4.9 µM |
| CCOCCN(C(=O)C1CCC(C)CC1)c1cc(-c2ccc(-c3cn4ccsc4n3)cc2)sc1C(=O)O |  | 1a |  | replicon / ELISA | 0.01–0.049 µM |
| O=C(N[C@@H](C(=O)N1CCC[C@H]1c1ncc(-c2ccc(-c3ccc(-c4cnc([C@@H]5CCCN5C(=O)[C@H](NC(=O)C5CC5)c5ccccc5)s4)cc3)cc2)s1)c1ccccc1)C1CC1 | Huh7.5 | genotype 2a | T24A | luciferase / reporter gene | 0.0162 µM |

Neighbouring rows are from separate reports. Two numbers with a dash give a range or band. Blank or dashed fields: not listed here.